From ChEMBL document CHEMBL3988442, “University of Dundee, Small-Polar-MMV Screening Library” (2021).

A: 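Growth of Mycobacterium tuberculosis over 4 days (cholesterol / DPPC medium with tyloxapol); the read-out is not stated. Concentration: 500 µM. Higher reads as more growth inhibition (inferred: compounds with an IC50 in retests scored well above the rest). Size under these conditions: about 18,000 compounds, about 900 of them at 50% or above in at least one test.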
B: 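Whole-cell growth test on Mycobacterium tuberculosis, read after 3 days in glucose-containing 7H9 medium; the read-out is not stated. Compounds at 500 µM. Direction is inferred from retests: higher values go with more growth inhibition. About 18,000 compounds were tested under these conditions; 7.9% (about 1,400) showed 50% or more at least once.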

Results are given as percent effect. The record does not define 0% and 100%; most values in the screen are far below 50% and negative numbers occur (in some assays of this library far below -100). Many other results are left out here, so strong results are more common than in the screen. A dash means the value is not listed here; it may have been measured.

| SMILES | A | B |
|---|---|---|
| `CN(C)C(CNC(=O)c1ccncc1)c1ccsc1` (configuration not stated) | 4.467% | - |
| `COC(C)CCC(=O)Nc1cnccn1` (configuration not stated) | -7.255% | - |
| `CCN(CC)CCNC1=NS(=O)(=O)c2ccccc21` | - | 10.47% |
| `CC(C)C(N)c1nncn1C` (configuration not stated) | - | -1.405% |
| `OCCN1CCN(c2nc(-c3ccccc3)no2)CC1` | 60.11% | 59.47% |
| `Cc1cc(NC(=O)CCN2CCCCC2C(N)=O)no1` (configuration not stated) | - | 15.22% |
| `N#Cc1cccc(S(=O)(=O)NCCc2ccccn2)c1` | - | 30.28% |
| `Cc1ccccc1-n1c(C)nnc1SCCC(N)=O` | - | 14.01% |
| `FC(F)(F)c1ccc(OC2CCNCC2)nc1` | 55.56% | 71.06% |
| `COC(=O)c1ccc(OCC(=O)N2CCOCC2)cc1` | 26.84% | - |
| `COc1ccccc1OC1CN(c2nccc(N)n2)C1` | 10.75% | - |
| `O=C1c2ccccc2C(=O)N1CN1CCCCC1` | - | -1.337% |
| `Cc1ncn(CC(=O)NCCSc2nnnn2C)c1C` | -0.7999% | - |
| `CCCC1CCN(CC(=O)NCc2cccnc2)C1` (configuration not stated) | - | 13.6% |
| `O=C(CCN1CCC[C@H]1CO)Nc1ccccc1` | 9.396% | 14.09% |
| `COCC1CCN(CC(=O)Nc2ccn(C)n2)C1` (configuration not stated) | 3.304% | - |
| `Cn1ncnc1COc1ccc(S(N)(=O)=O)cc1` | -2.09% | - |
| `O=C(NCCCn1cc(Cl)cn1)C1CCOCC1` | - | 18.81% |
| `CCC(O)(CC)C(C)(C)CN` | - | 5.849% |
| `O=C1CC(C(=O)NCCNC(=O)c2ccccc2)CN1` (configuration not stated) | -8.857% | - |
| `Cn1nccc1CCC(=O)N[C@@H]1COCC[C@H]1O` | - | 6.421% |
| `COc1ccc(NC(=O)c2cccn2C)cc1OC` | - | 33.85% |
| `COc1ncc(C)cc1NC(=O)CCc1cccnc1` | -8.329% | - |
| `CNC(=O)Nc1ccc2c(c1)C(=O)N(C)C2=O` | - | 5.148% |
| `CC(=O)Nc1ccc(CN)cn1` | -9.272% | - |
| `NCCC1CCCN(C(=O)c2c(O)cccc2O)C1` (configuration not stated) | 5.649% | 1.443% |
| `CS(=O)(=O)NCCC(=O)N1CCc2ccccc2C1` | -7.526% | 17.1% |
| `N#Cc1cccc(C(=O)NCCCn2cccn2)c1` | 15.93% | 38.16% |
| `CN(C)CCCNCC(O)COc1ccccc1` (configuration not stated) | 25.68% | - |
| `Cc1ccc(-c2nnc(SCC(=O)N(C)C)n2C)cc1` | - | 19.92% |
| `CN(C)C(=O)c1ccc(Cl)c(S(=O)(=O)N2CCCC2)c1` | - | 28.48% |
| `N[C@@H](C(=O)NCCc1cn[nH]c1)C1CCCCC1` | - | 2.752% |
| `CNC(=O)Cn1cc(-c2ccnc3c2ccn3C)cn1` | - | 2.616% |
| `CCC(NC(=O)NCCCOC)C(C)C` (configuration not stated) | - | 57.8% |
| `CC(C)CC(C)S(N)(=O)=O` (configuration not stated) | -1.991% | - |
| `c1cn(C2CCCNCC2)nn1` (configuration not stated) | -11.87% | -5.606% |
| `CN(C)CCOc1ccc(NS(C)(=O)=O)cc1Cl` | -18.47% | - |
| `CCc1cccc(CN)c1` | - | 2% |
| `Cc1nn(C)cc1S(=O)(=O)NCc1cccnc1` | 4.206% | - |
| `CN(C)CC(N)c1ccco1` (configuration not stated) | -7.32% | - |
| `Cc1cccc(=O)n1CCCNC(=O)c1cnco1` | -17.74% | - |
| `CC(C)N1CCOC(Cn2cc(Br)cn2)C1` (configuration not stated) | - | 21% |
| `O=C(Cc1cc(F)ccc1F)N[C@H]1CCCNC1` | - | 4.259% |
| `CCNS(=O)(=O)C1CCN(c2ccncc2Cl)C1` (configuration not stated) | - | 12.45% |
| `Cc1ccc(F)c(N2CCC(N)CC2)c1` | 16.88% | 31.07% |
| `CNC(=O)C(CC(C)C)NC(=O)c1ccc(Br)c(O)c1` (configuration not stated) | - | 4.505% |
| `CCn1c(CN2CCN(C)CC2)nnc1[C@H]1C[C@@H](N)C1` | - | -12.13% |
| `Cc1cc(CO)no1` | -11.44% | - |
| `CCOC(C)(C)C(=O)NC(CC)Cn1ccnc1` (configuration not stated) | - | -5.779% |
| `O=C(c1cc(Cl)ccc1F)N1CCNCC1` | - | 0.4294% |
| `COCCS(=O)(=O)NC1CCCCC1` | - | 7.06% |
| `CCS(=O)(=O)Nc1ccc(CN)cc1` | 4.759% | - |
| `CN(Cc1cc(=O)n(C)c(=O)n1C)C1CCS(=O)(=O)C1` (configuration not stated) | -4.025% | - |
| `CC(C)(C)OCCOc1ccc(OCCO)cc1` | 63.67% | 60.5% |
| `CCCc1ncncc1C(=O)NCc1cnc(C)cn1` | - | 0.5911% |
| `O=C(NCc1cc(F)cc(Br)c1)C1COCCN1` (configuration not stated) | 14.78% | 26.5% |
| `Cc1ccc(NC(=O)CCCc2nc(C)no2)nc1` | 9.936% | - |
| `CCCNC(=O)c1csc(NC(C)=O)n1` | -10.78% | 10.43% |
| `CCOC(=O)c1ccc(CNc2nncs2)o1` | - | 18.02% |
| `CCn1cnnc1C1CNCCO1` (configuration not stated) | -2.905% | - |
| `CCCC(=O)Nc1ccc(N2CCN(C)CC2)cc1` | -6.179% | - |
| `O=C(c1ccc(Br)s1)N1CCN(c2ccccn2)CC1` | 12.72% | -5.09% |
| `O=C(NC1COC1)c1ccc(Br)cn1` | 18.09% | - |
| `COc1ccc(C)cc1NC(=O)Cn1cccn1` | - | 39.73% |
| `CCn1cnnc1CNC(=O)c1cc(Cl)c(Cl)n1C` | -5.018% | - |
| `CC(C)C(NC(=O)C1=COCCO1)c1ccccc1` (configuration not stated) | -8.072% | - |
| `CC(C)c1csc(C(=O)N2CCn3cncc3C2)n1` | 3.837% | - |
| `CCc1c(C)nc2sc(C(N)=O)c(N)c2c1C` | -4.797% | - |
| `COc1cc(F)cc(CNC(=O)Nc2ncco2)c1` | - | -4.308% |
| `Cn1ccc(C2CCCCN2)n1` (configuration not stated) | - | -11.78% |
| `CC(=O)Nc1nc(CCN)cs1` | 14.53% | 18.23% |
| `CCC1CN(S(=O)(=O)c2cccc(C#N)c2)CCO1` (configuration not stated) | - | -0.6558% |
| `CCN(CC)CC(O)COc1ccc(OC)cc1` (configuration not stated) | - | -2.074% |
| `COCCc1nc(CC(C)N(C)C)n(CCO)n1` (configuration not stated) | - | 1.711% |
| `CCNC(=O)N1CCC(C(=O)c2ccc(O)cc2)CC1` | - | 40.28% |
| `O=C(NCCCN1CCOCC1)NCc1ccsc1` | - | 12.22% |
| `CC(=O)NCCCC(=O)N(C)Cc1nccs1` | 0.09079% | - |
| `Cc1ccccc1C(=O)N[C@H](CO)C(C)C` | - | 9.113% |
| `N#Cc1ccc(C(=O)NCC2CC2)cc1` | 54.35% | 58.71% |
| `COc1cc(NC(=O)c2cncc(Br)c2)ncn1` | - | -9.428% |
| `COCCNCCNC(=O)C1CSc2ccccc21` (configuration not stated) | - | -0.7066% |

The last 5 entries again:

{"smiles": "CC(=O)NCCCC(=O)N(C)Cc1nccs1", "A": 0.09079}
{"smiles": "Cc1ccccc1C(=O)N[C@H](CO)C(C)C", "B": 9.113}
{"smiles": "N#Cc1ccc(C(=O)NCC2CC2)cc1", "A": 54.35, "B": 58.71}
{"smiles": "COc1cc(NC(=O)c2cncc(Br)c2)ncn1", "B": -9.428}
{"smiles": "COCCNCCNC(=O)C1CSc2ccccc21", "stereo": "configuration not stated", "B": -0.7066}